# PubChem BioAssay AID1259414 | Drosophila RNAi Screening Center, 2018
# Test: 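Genome-wide screen for host control of endosymbiont load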 (primary screen)
# System: Drosophila JW18 cells infected with Wolbachia
# Reagent: long dsRNA against Drosophila genes, 0.25 µg dsRNA per well of a 384-well plate
# Timing: 5 days
# Treatment: cells persistently infected with Wolbachia before knock-down; no added drug
# Measurement: 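Imaged fluorescence in situ signal for Wolbachia 23S rRNA per DAPI-counted host cell, given as a robust z-score within each plate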
# Scale: Wolbachia per cell robust z: higher = more Wolbachia per host cell than the plate typical
# Rule for the call: 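Hit when robust z is 1.5 or more, or -1.5 or less, in at least two of three replicates; excludes dsRNAs with several or no targets, genes not expressed in JW18 and well A1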
# The deposit covers about 24,000 reagents; this is a random part of those with a known target gene and a result. Over the whole deposit, about 1,210 (5%) got an active call. 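Inactive calls also include excluded dsRNAs with several or no targets, genes unexpressed in JW18, and well A1, regardless of score.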 A plus sign joins genes that one reagent is predicted to hit.
target gene,DRSC id,"Wolbachia per cell robust z, rep 1","Wolbachia per cell robust z, rep 2","Wolbachia per cell robust z, rep 3",outcome
CG14089,DRSC10093,-0.785,0.503,-0.686,inactive
CG14089,DRSC24848,0.558,0.483,1.02,inactive
hiro (highroad),DRSC08564,0.705,0.481,0.657,inactive
hiro (highroad),DRSC29780,-0.668,-0.549,-0.394,inactive
CG30485,DRSC06376,0.584,0.625,-0.28,inactive
Rae1,DRSC04577,0.214,0.979,0.296,inactive
CPT2 (Carnitine palmitoyltransferase 2),DRSC08553,-0.319,-1.4,0.717,inactive
eEFSec,DRSC04571,1.06,-5.43,-2.63,active
Mtr4 (Mtr4 helicase),DRSC03560,0.977,-0.181,0.524,inactive
CG33282,DRSC00422,-0.836,1.23,1.29,inactive
eIF4E3 (eukaryotic translation initiation factor 4E3),DRSC10952,-0.367,-0.00167,-0.996,inactive
Bx (Beadex),DRSC19624,0.118,0.0668,-0.694,inactive
Bx (Beadex),DRSC23048,1.54,0.822,1.06,inactive
Bx (Beadex),DRSC28506,-3.32,-0.452,-0.0368,inactive
CG42752,DRSC41391,-2.51,0.36,-0.014,inactive
CG13043,DRSC09924,0.758,-0.466,-3.01,inactive
CG13043,DRSC25440,0.454,1.66,1.77,inactive
CG14491,DRSC06462,-0.153,0.561,-1.63,inactive
CG14491,DRSC29448,0.443,0.827,0.584,inactive
Lcp1 (Larval cuticle protein 1),DRSC07455,-1.18,0.405,0.701,inactive
Lcp1 (Larval cuticle protein 1),DRSC41547,-0.234,-0.42,-0.686,inactive
Pxt (Peroxinectin-like),DRSC17040,1.03,0.237,0.913,inactive
CG17917,DRSC12570,-1.26,0.021,0.729,inactive
obst-H (obstructor-H),DRSC10935,-0.789,2.07,-1.41,inactive
obst-H (obstructor-H),DRSC10940,0.0669,-0.468,0.398,inactive
Arp1 (Actin-related protein 1),DRSC14118,1.35,1.57,1.76,active
Arp1 (Actin-related protein 1),DRSC26164,-0.529,-0.942,-0.146,inactive
mt:ND3 (mitochondrial NADH-ubiquinone oxidoreductase chain 3),DRSC40643,0.388,0.622,0.85,inactive
CG33648,DRSC37908,1.26,0.538,0.716,inactive
mus101 (mutagen-sensitive 101),DRSC19388,-2.23,-0.813,-1.27,inactive
CG43331,DRSC11671,-1.95,0.857,-0.258,inactive
CG18304,DRSC02664,-0.651,-0.0227,0.609,inactive
CG18304,DRSC28389,0.57,-0.606,-0.936,inactive
CG18304,DRSC39011,0.424,-3.08,-0.493,inactive
EndoA (Endophilin A),DRSC14775,-0.318,-0.0822,0.23,inactive
EndoA (Endophilin A),DRSC29646,1.24,0.908,0.846,inactive
tun (tungus),DRSC05592,-0.313,-0.446,0.362,inactive
tun (tungus),DRSC07127,-0.849,-0.347,-2.6,inactive
Mmp2 (Matrix metalloproteinase 2),DRSC06698,-0.267,-3.38,-2.04,active
Mmp2 (Matrix metalloproteinase 2),DRSC22024,-0.157,0.89,1.08,inactive
Mmp2 (Matrix metalloproteinase 2),DRSC25458,0.833,0.141,-1.9,inactive
CG7408,DRSC10841,0.676,0.419,1.64,inactive
Nup98-96 (Nucleoporin 98-96kD),DRSC14209,1.26,1.07,-2.5,inactive
Nup98-96 (Nucleoporin 98-96kD),DRSC14210,0.953,0.62,1.42,inactive
CG7856,DRSC04896,-0.152,-1.48,-1.2,inactive
GlcT (Glucosylceramide synthase),DRSC04525,-0.754,-1.64,-5.64,active
GlcT (Glucosylceramide synthase),DRSC27991,-0.0221,0.801,0.0915,inactive
CG7970,DRSC08605,0.639,0.0112,0.919,inactive
CG7970,DRSC26090,-0.0319,0.0618,-0.637,inactive
CG32246,DRSC08115,-0.0474,0.304,0.255,inactive
CG32246,DRSC24361,-0.0448,0.0938,0.821,inactive
Lsm10,DRSC06250,0.00556,-0.795,0.473,inactive
CG12773,DRSC18580,-0.74,-9.51,0.609,inactive
CG12773,DRSC24900,0.784,-0.083,1.25,inactive
CG14380,DRSC14840,1.52,0.348,-0.437,inactive
cerv (cervantes),DRSC19681,0,0.735,0.173,inactive
cerv (cervantes),DRSC25320,0.361,0.666,1.17,inactive
Ir52c (Ionotropic receptor 52c),DRSC21801,-0.636,-0.217,-0.00843,inactive
Ir52c (Ionotropic receptor 52c),DRSC27570,0.893,-0.382,-10.6,inactive
Cypl (Cyclophilin-like),DRSC08362,0.911,1.22,-2.11,inactive
Cypl (Cyclophilin-like),DRSC25421,0.344,-1.27,-0.855,inactive
ftz (fushi tarazu),DRSC12626,-0.139,-1.84,-0.0515,inactive
ftz (fushi tarazu),DRSC28088,0.982,0.104,1.17,inactive
ftz (fushi tarazu),DRSC40856,0.358,0.302,0.422,inactive
kek4 (kekkon 4),DRSC03220,-0.452,-1.49,-0.902,inactive
CG12521,DRSC09893,-1.16,-0.443,0.0992,inactive
RpLP1 (Ribosomal protein LP1),DRSC00783,1.87,2.45,3.86,active
RpLP1 (Ribosomal protein LP1),DRSC22145,0.524,-0.0365,0.422,inactive
RpLP1 (Ribosomal protein LP1),DRSC23411,0.459,3.58,2.78,active
CG17177,DRSC10257,0.00543,-1.13,-1.09,inactive
"Prosalpha3T (Proteasome alpha3 subunit, Testis-specific)",DRSC15226,0.179,0.168,0.118,inactive
Cyp4g15 (Cytochrome P450 4g15),DRSC20240,0.532,0.101,1.03,inactive
Galphaq (G protein alpha subunit q),DRSC07432,-0.618,-1.21,-0.739,inactive
Galphaq (G protein alpha subunit q),DRSC25341,0.563,0.0601,-0.641,inactive
CG5614,DRSC15845,-0.207,-0.781,-0.911,inactive
CG43292,DRSC21542,0.797,0.889,0.216,inactive
Cnep1r2 (CTD nuclear envelope phosphatase 1 regulatory subunit 2),DRSC10950,-0.724,-0.422,-0.896,inactive
CG30108 + CG30109,DRSC05674,-1.64,-2.81,-0.56,inactive
laf (labial associated factor),DRSC12246,-0.612,2.55,-9.25,inactive
CG17219,DRSC00486,-0.258,0.605,-0.679,inactive
flip (flippy),DRSC12326,0.297,0.703,0.345,inactive
CG42763,DRSC41415,-0.899,0.34,0.182,inactive
ctp (cut up),DRSC18758,-0.0852,1.22,-8.6,inactive
ctp (cut up),DRSC25165,0.88,-0.159,0.649,inactive
CG42716,DRSC41363,-2.02,-0.162,-0.851,inactive
eEF1alpha1 (eukaryotic translation elongation factor 1 alpha 1),DRSC07421,0.537,1.25,-1.94,inactive
eEF1alpha1 (eukaryotic translation elongation factor 1 alpha 1),DRSC25133,-0.0547,2.13,2.6,active

Part of the list above, reformatted.
target gene	DRSC id	Wolbachia per cell robust z, rep 1	Wolbachia per cell robust z, rep 2	Wolbachia per cell robust z, rep 3	outcome
flip (flippy)	DRSC12326	0.297	0.703	0.345	inactive
CG42763	DRSC41415	-0.899	0.34	0.182	inactive
ctp (cut up)	DRSC18758	-0.0852	1.22	-8.6	inactive
ctp (cut up)	DRSC25165	0.88	-0.159	0.649	inactive
